PubChem BioAssay AID1224833 | University of Georgia, 2016

- Screen: 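Human genes whose knock-down alters rotavirus replication in monkey cells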 (primary screen)
- Cell system: monkey MA104 kidney cells
- Reagents: siRNA pool against human genes, 50 nM
- Time to read-out: 48 h knock-down before infection; read 24 h after infection
- Conditions: infection with rotavirus strain RV3 two days after transfection; infectious dose for this stage not given
- Measured: 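z-score of rotavirus antigen signal per well, from a fluorescent immunoassay, relative to non-targeting control wells on the same plate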
- Direction: z-score vs non-targeting control: higher = more rotavirus replication than with non-targeting control
- Rule for the call: In these data the active calls have z-score vs non-targeting control at about -1 or lower, or at about 1 or higher
- Calls: active = z-score beyond 1 either way; inactive = z-score within 1 of zero
The whole screen tested about 12,000 reagents; shown is a random part of them. About 5,600 of them (46%) were called active. 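Active calls cover z-scores past 1 in both directions, so they include lowered as well as raised rotavirus replication.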 A number with no mark means an inactive call. No sequences are given here.

With PDE7A, how do the results read?
z-score vs non-targeting control: -0.539

For RAET1G, what was measured?
z-score vs non-targeting control: -0.419

How did the screen score CLDN1?
z-score vs non-targeting control: 0.284

What is on record for LRRC45?
z-score vs non-targeting control: 0.792

For ST8SIA3, how do the results read?
z-score vs non-targeting control: -0.697

Which result is listed for THBS1?
z-score vs non-targeting control: -0.482

Which result is listed for CORIN?
z-score vs non-targeting control: 0.64

What did the screen give for OR4F6?
z-score vs non-targeting control: -0.606

2 neighbouring reagents from above, quoted:
LRRC45 — z-score vs non-targeting control: 0.792
ST8SIA3 — z-score vs non-targeting control: -0.697

More results follow.
How did the screen score TENT5D?
z-score vs non-targeting control: -0.779

For IL23A, what was measured?
z-score vs non-targeting control: 0.159

Which result is listed for LEMD2?
z-score vs non-targeting control: 0.111

With DMXL2, how do the results read?
z-score vs non-targeting control: -0.145

How did the screen score BRIX1?
z-score vs non-targeting control: 0.468

With SLC35D2, how do the results read?
z-score vs non-targeting control: 0.303

How did the screen score DNAJB13?
z-score vs non-targeting control: 3.55 (active)

What did the screen give for HMOX2?
z-score vs non-targeting control: -2.98 (active)

For GORASP1, what was measured?
z-score vs non-targeting control: 1.29 (active)

What did the screen give for MGMT?
z-score vs non-targeting control: -1.46 (active)

With RTL10, what does the deposit list?
z-score vs non-targeting control: -1.35 (active)
